Common to all, as to assay: affinity purification with mass spectrometry; HA-tagged TgWIP variants pulled down by the HA tag from lysates of DC2.4 cells infected 4 h at MOI 7; host partners by mass spectrometry; values are negative fold changes in peptide counts of the mutant immunoprecipitations relative to TgWIP^WT
Test [1] addresses TgWIP^(PRR2 mut), HA-tagged (Toxoplasma gondii).
Test [2] has as its target TgWIP^(PRR3 mut), HA-tagged (Toxoplasma gondii).
In test [3] the target is TgWIP^(WIRS mut), HA-tagged (Toxoplasma gondii).
The target in test [4] is TgWIP^Y150A/Y199A, HA-tagged (Toxoplasma gondii).

In the case of “Nck1, endogenous in murine DC2.4 cells (from UniProt Q99M51 1-377) (natural protein)”, the negative fold change in peptide counts relative to TgWIP^WT is 1 fold in test [1], 60 fold in test [2], 1 fold in test [3] and 1 fold in test [4].

These data come from paper PMC12691643.
